From publication PMC3027617

Chains of the proteins cited; added tags and fusions are not shown. Chains listed by the source or under a name are the forms on record and can include a tag or linker.
2F5 monoclonal antibody (human), heavy, as listed by the source, chain 1 of 2: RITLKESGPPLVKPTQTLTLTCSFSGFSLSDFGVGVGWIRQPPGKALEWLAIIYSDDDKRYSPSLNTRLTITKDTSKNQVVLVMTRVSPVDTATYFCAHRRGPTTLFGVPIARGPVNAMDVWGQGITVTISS
2F5 monoclonal antibody (human), light, as listed by the source, chain 2 of 2: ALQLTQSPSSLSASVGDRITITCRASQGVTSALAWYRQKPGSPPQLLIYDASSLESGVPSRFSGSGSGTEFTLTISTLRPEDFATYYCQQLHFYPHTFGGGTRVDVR

Target: 2F5 monoclonal antibody (human)
Experiment: SPR; Biacore 3000, RT; 2F5 IgG immobilised on a CM5 chip by amine coupling (about 500 RU); ES proteins or peptide as analytes in HEPES-EP buffer (3.9-500 nM for ES5, ES2, ES4; 62.5-2000 nM for ES1; 3.9-250 nM for the peptide); 3 min association at 30 uL/min, 3 min dissociation; 1:1 Langmuir fit …

## 2F5 epitope scaffold ES1 (designed binder)
  Kd: 0.0711 µM

## 2F5 epitope scaffold ES4 (designed binder)
  Kd: 0.0852 µM
  koff: 0.00299 s⁻¹
  kon: 35100 M⁻¹ s⁻¹

## 2F5 epitope scaffold ES5 (designed binder)
  Kd: 0.0411 µM
  koff: 0.000413 s⁻¹
